Data taken from paper PMC6414702, “AtrR Is an Essential Determinant of Azole Resistance in Aspergillus fumigatus”.
For at least one entry, the source does not settle the construct or the ends of the probe. At least one verdict was read from the data and is not stated in words by the source. Where a protein sequence is shown, tags need not be part of it.

Molecular target: T1, SrbA (recombinant) (Aspergillus fumigatus) (UniProt Q4WIN1)
T1 sequence (looked up, limits assumed): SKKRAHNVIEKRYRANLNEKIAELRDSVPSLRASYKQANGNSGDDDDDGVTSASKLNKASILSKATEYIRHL
Assay: EMSA
Settings: Biotin EMSA: 25 mM Tris-HCl pH 7.5, 80 mM NaCl, 35 mM KCl, 5 mM MgCl2, 10% glycerol, 1 ug poly(dI-dC), 20 ul, 0.1 ug AtrR-DBD, 20 pmol probe, room temperature 30 min; recombinant protein; label: 5' biotin on both strands

GAATCACGCGGTCCGGATGTGTGCTGAGCCGAAT (double strand) [cyp51A 34-bp probe]
binding result: binds
